{"source": "the supplement of paper PMC9931576", "binders": {"B1": {"name": "BD-667 (protein)", "chain 1": "QVQLVESGGGLVKPGGSLRLSCAASGFRFSDYYMNWIRQAPGKGLEWISYIGSGGFATYYGDSVKGRFTVSRDDAENSLYLQMNSLRAEDTAVYYCARGVTSYSDNSGNYRTDDAFDIWGQGTMVTVSS", "chain 2": "EIVMTQSPATLSVSPGERATLSCRASQSVSRNLAWYQQRPGQAPRLLIYGASTRATGVAARFTGSGFGTEFTLTISGLQSEDFAVYYCQEYNNWPPWTFGQGTKVEIK"}, "B2": {"name": "BD55-387 (protein)", "chain 1": "QITLKESGPTLVKPTQTLTLTCTFSGFSLSTSGVGVGWIRQPPGKALEWLALIYWDDDKRYSPALKSRLTITEDTSKNQVVLTMTNMDPVDTATYYCAHCAPAWNYFDYWGQGTLVAVSS", "chain 2": "QSVLTQPPSVSGAPGQRVTISCTGSSSNIGAGYDVHWYQQLPGTAPKLLIYRNSNRPSGVPGRFSGSKSGTSASLAITGLQAEDEADYFCQSYDSSLSGWVFGGGTKLTVL"}, "B3": {"name": "BD55-44 (protein)", "chain 1": "QVQLQESGPGLVKPSGTLSLTCAVSGGSISSSNWWSWVRQPPGKGLEWIGEIFQSGSTSYNPSLSSRVTISVDKSKNQFSLNLRSVTAADTAVYFCARDEGERYCNSGSCYSRLDYWGQGTLVTVSS", "chain 2": "DIQMTQSPSSLSASVGDRVTITCRASQGISNYLAWFQQRPGKAPKSLIYAASNLQSGVPSRFSGSGSGTEFTLTISSLQPEDFATYYCQQYDIYPPTFGPGTKVDVK"}, "B4": {"name": "BD-702 (protein)", "chain 1": "EVQLVESGGGLVQPGGSLRLSCAASGFTFSNYNMNWVRQAPGKGLEWVSFISSSSTKYYADSVKGRFTISRDNAKNSLYLQMNSLRDEDTAIYYCARLKYTYGEIDYWGQGTLVTVSS", "chain 2": "NFMLTQPHSVSESPGKTVTISCTGSSGAIATNYVQWYQQRPGSAPTTVIYEDNQRPSGVPDRFSGSIDSSSNSASLTISGLKTEDEADYYCQSYNNFNWVFGGGTKLTVL"}, "B5": {"name": "BD-708 (protein)", "chain 1": "QVQLVESGGGVVQPGRSLRLSCAASGFTLSNYAMHWVRQAPGTGLEWVAVISDDGSIKFYADSVKGRFTISRDNSKNTLYLQMNSLRAEDTAVYYCARDGDDSSGYFFDYWGQGTLVTVSS", "chain 2": "DIQMTQSPSSLSASVGDRVTITCRASQGINNFLAWYQQKPGKAPKLLLYSASRLESGVPSRFSGSGSGTDYTLTISSLQPEDFATYYCQQYYSTLALTFGGGTKVEIK"}, "B6": {"name": "BD55-814 (protein)", "chain 1": "QLQLQESGPRLVKPSETLSLTCTVSGGSISSSSYYWGWIRQPPGKGLEWIGSIYYTGSTYYNPSLKSRVTMSVDTSNNQFSLKLSSVTAADTAVYYCARQYSGYDLQDYWGQGTLVTVSS", "chain 2": "DIQMTQSPSTLSASVGDRVTITCRASQSISSWLAWYQQKPGKAPKLLIYMASNLESGVPSRFSGSGSGTEFTLTISSLQPDDFATYYCQEYNSYSRTFGQGTKVEVK"}, "B7": {"name": "BD55-842 (protein)", "chain 1": "EVQLVQSGAELKKPGQSLKISCHGSGYTFTTNWIAWVRQMPGKGLEWMGVIYPGDSDTRYSPSLQGQVTISVDKSISTAYLQWSSLEASDSGMYYCARGGSTYTSAWQDDGFDVWGPGTMVTVSS", "chain 2": "SYELTQAPSVSVSPGQAANISCSGDKLGYRYVSWYQQKPGQSPVLVIYQDNRRPSGIPERFSGSNSGNTATLTISGTQASDEADYSCLTWDISTGVFGGGTKLTVL"}, "B8": {"name": "BD-715 (protein)", "chain 1": "EVQLVESGGGFVQPGRSLRLSCAASGFIMDDYAMHWVRQAPGKGLEWVSGISWNSGTRGYADSVKGRFTVSRDNAKNSFYLQMNSLRAADTAVYYCAKDHGPWIAANGHYFDYWGQGTLVTVSS", "chain 2": "QSVLTQPPSASGTPGQRVTISCSGSKSNIGSNPVNWYQQLPGTAPKLLIYSNNERPSGVPARFSGSKSGTSASLAISGLQSEDEADYYCVTWDDSLNGWVFGGGTKLTVL"}, "B9": {"name": "BD55-862 (protein)", "chain 1": "EVQLVESGGDLVQPGGSLRLSCAASGFTFRSYEMNWVRQAPGKGLEWVSYIGSSGNEIYYADSVKGRFTVSRDNAKNSLFLQMNSLRAEDTAVYYCARGGGTATITFDSWGQGTLVTVSS", "chain 2": "SYVLTQPPSVSVAPGKTARITCGGSNIGGKSVHWYQQKPGQAPVLVIYYDDDRPSGIPERFSGSNSGNTATLTISRVEAGDEADYFCQVWDRSTEHYVFGAGTRVTVL"}, "B10": {"name": "BD55-864 (protein)", "chain 1": "QVQLQQWGAGLLKPSETLSRTCAVYGGSFSGYYWTWIRQSPGKGLEWIGEINDSGSASYSPSLMSRVTISVDPSKNQFSLELRSVTAADTAVYFCARTVNRDRSGYVWFFDYWAQGTLVTVSS", "chain 2": "DIQMTQSPSSLSASVGDSVTITCRASQDITTYLNWYQQKPGQAPKLLIYATSTLQSGVPFRFRGSGFEMYFTLTINSLQPEDFATYYCQQSYNIPYTFGQGTKLEIK"}, "B11": {"name": "BD55-867 (protein)", "chain 1": "QVQLVQSGAEVKKPGASVRVSCKASGYTFTTYGISWVRQAPGQGLEWMGWISAYNGYTNYAQKLQGRVTMTTDTSTSTAYMELRSLRSDDTAVYYCARDLKQQLVYNWFDPWGQGTLVTVSS", "chain 2": "SYELTQPPSVSVSPGQTARITCSGDALPKQYAYWYQQKPGQAPVLVIYKDSERPSGIPERFSGSSSGTTVTLTISGVQAEDEADYYCQSADSSGTSPVVFGGGTKLTVL"}, "B12": {"name": "BD55-874 (protein)", "chain 1": "QVQLVQSGAEVKKPGASVKVSCKASGYIFTAYFILWVRQAPGHGLEWVGWINPNSGSTYYAQKFQGRITLTRDTSISTAYMDLSRLTSDDTAVYYCAREKQLDHYGMDVWGRGTTVTVSS", "chain 2": "SYELTQPPSVSVSPGQTVSITCSGDKLGFKYVCWYQQKPGQSPVLVIYQDTKRPSGIPERFSGSNSGNTATLTISGTQSMDEADYYCQAWDTSTGVFGGGTKLTVL"}}, "note": "Human monoclonal antibodies against the spike receptor-binding domain (heavy:light variable regions). IC50 against pseudoviruses bearing the spike of naturally observed variants; lower = stronger; >10 µg/ml means not reached at the top dose. No active / inactive call. The stated detection limit is 0.0005 µg/ml; values near or below 0.001 µg/ml lie at the floor of the assay.", "data": [{"biological_target": "SARS-CoV-2 Omicron BA.1 spike pseudovirus", "test": "pseudovirus neutralization IC50; higher = weaker neutralization", "procedure": "(§1)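 Single-round VSV luciferase pseudovirus mixed with antibody dilutions for 1 h and put on Huh-7 cells for about a day; IC50 from the dose curve.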", "units": {"pseudovirus neutralization IC50": "mg/L"}, "values": [{"binder": "B1", "pseudovirus neutralization IC50": "> 10"}, {"binder": "B2", "pseudovirus neutralization IC50": 1.57}, {"binder": "B3", "pseudovirus neutralization IC50": 0.11}, {"binder": "B4", "pseudovirus neutralization IC50": "> 10"}, {"binder": "B5", "pseudovirus neutralization IC50": "> 10"}, {"binder": "B6", "pseudovirus neutralization IC50": "> 10"}, {"binder": "B7", "pseudovirus neutralization IC50": "> 10"}, {"binder": "B8", "pseudovirus neutralization IC50": "> 10"}, {"binder": "B9", "pseudovirus neutralization IC50": "> 10"}, {"binder": "B10", "pseudovirus neutralization IC50": "> 10"}, {"binder": "B11", "pseudovirus neutralization IC50": "> 10"}, {"binder": "B12", "pseudovirus neutralization IC50": "> 10"}]}, {"biological_target": "SARS-CoV-2 Omicron BA.2 spike pseudovirus", "test": "pseudovirus neutralization IC50; higher = weaker neutralization", "procedure": "as §1", "units": {"pseudovirus neutralization IC50": "mg/L"}, "values": [{"binder": "B1", "pseudovirus neutralization IC50": 0.646}, {"binder": "B2", "pseudovirus neutralization IC50": 0.878}, {"binder": "B3", "pseudovirus neutralization IC50": 0.379}, {"binder": "B4", "pseudovirus neutralization IC50": "> 10"}, {"binder": "B5", "pseudovirus neutralization IC50": "> 10"}, {"binder": "B6", "pseudovirus neutralization IC50": "> 10"}, {"binder": "B7", "pseudovirus neutralization IC50": "> 10"}, {"binder": "B8", "pseudovirus neutralization IC50": "> 10"}, {"binder": "B9", "pseudovirus neutralization IC50": "> 10"}, {"binder": "B10", "pseudovirus neutralization IC50": "> 10"}, {"binder": "B11", "pseudovirus neutralization IC50": "> 10"}, {"binder": "B12", "pseudovirus neutralization IC50": "> 10"}]}, {"biological_target": "SARS-CoV-2 Omicron BA.2.75 spike pseudovirus", "test": "pseudovirus neutralization IC50; higher = weaker neutralization", "procedure": "as §1", "units": {"pseudovirus neutralization IC50": "mg/L"}, "values": [{"binder": "B1", "pseudovirus neutralization IC50": 1.25}, {"binder": "B2", "pseudovirus neutralization IC50": 1.13}, {"binder": "B3", "pseudovirus neutralization IC50": "> 10"}, {"binder": "B4", "pseudovirus neutralization IC50": "> 10"}, {"binder": "B5", "pseudovirus neutralization IC50": "> 10"}, {"binder": "B6", "pseudovirus neutralization IC50": "> 10"}, {"binder": "B7", "pseudovirus neutralization IC50": "> 10"}, {"binder": "B8", "pseudovirus neutralization IC50": "> 10"}, {"binder": "B9", "pseudovirus neutralization IC50": "> 10"}, {"binder": "B10", "pseudovirus neutralization IC50": "> 10"}, {"binder": "B11", "pseudovirus neutralization IC50": "> 10"}, {"binder": "B12", "pseudovirus neutralization IC50": "> 10"}]}, {"biological_target": "SARS-CoV-2 Omicron BA.5 spike pseudovirus", "test": "pseudovirus neutralization IC50; higher = weaker neutralization", "procedure": "as §1", "units": {"pseudovirus neutralization IC50": "mg/L"}, "values": [{"binder": "B1", "pseudovirus neutralization IC50": "> 10"}, {"binder": "B2", "pseudovirus neutralization IC50": 0.757}, {"binder": "B3", "pseudovirus neutralization IC50": "> 10"}, {"binder": "B4", "pseudovirus neutralization IC50": "> 10"}, {"binder": "B5", "pseudovirus neutralization IC50": "> 10"}, {"binder": "B6", "pseudovirus neutralization IC50": "> 10"}, {"binder": "B7", "pseudovirus neutralization IC50": "> 10"}, {"binder": "B8", "pseudovirus neutralization IC50": "> 10"}, {"binder": "B9", "pseudovirus neutralization IC50": "> 10"}, {"binder": "B10", "pseudovirus neutralization IC50": "> 10"}, {"binder": "B11", "pseudovirus neutralization IC50": "> 10"}, {"binder": "B12", "pseudovirus neutralization IC50": "> 10"}]}, {"biological_target": "SARS-CoV-2 Omicron BQ.1.1 spike pseudovirus", "test": "pseudovirus neutralization IC50; higher = weaker neutralization", "procedure": "as §1", "units": {"pseudovirus neutralization IC50": "mg/L"}, "values": [{"binder": "B1", "pseudovirus neutralization IC50": "> 10"}, {"binder": "B2", "pseudovirus neutralization IC50": "> 10"}, {"binder": "B3", "pseudovirus neutralization IC50": "> 10"}, {"binder": "B4", "pseudovirus neutralization IC50": "> 10"}, {"binder": "B5", "pseudovirus neutralization IC50": "> 10"}, {"binder": "B6", "pseudovirus neutralization IC50": "> 10"}, {"binder": "B7", "pseudovirus neutralization IC50": "> 10"}, {"binder": "B8", "pseudovirus neutralization IC50": "> 10"}, {"binder": "B9", "pseudovirus neutralization IC50": "> 10"}, {"binder": "B10", "pseudovirus neutralization IC50": "> 10"}, {"binder": "B11", "pseudovirus neutralization IC50": "> 10"}, {"binder": "B12", "pseudovirus neutralization IC50": "> 10"}]}, {"biological_target": "SARS-CoV-2 Omicron XBB spike pseudovirus", "test": "pseudovirus neutralization IC50; higher = weaker neutralization", "procedure": "as §1", "units": {"pseudovirus neutralization IC50": "mg/L"}, "values": [{"binder": "B1", "pseudovirus neutralization IC50": "> 10"}, {"binder": "B2", "pseudovirus neutralization IC50": "> 10"}, {"binder": "B3", "pseudovirus neutralization IC50": "> 10"}, {"binder": "B4", "pseudovirus neutralization IC50": "> 10"}, {"binder": "B5", "pseudovirus neutralization IC50": "> 10"}, {"binder": "B6", "pseudovirus neutralization IC50": "> 10"}, {"binder": "B7", "pseudovirus neutralization IC50": "> 10"}, {"binder": "B8", "pseudovirus neutralization IC50": "> 10"}, {"binder": "B9", "pseudovirus neutralization IC50": "> 10"}, {"binder": "B10", "pseudovirus neutralization IC50": "> 10"}, {"binder": "B11", "pseudovirus neutralization IC50": "> 10"}, {"binder": "B12", "pseudovirus neutralization IC50": "> 10"}]}, {"biological_target": "SARS-CoV-2 early D614G spike pseudovirus", "test": "pseudovirus neutralization IC50; higher = weaker neutralization", "procedure": "as §1", "units": {"pseudovirus neutralization IC50": "mg/L"}, "values": [{"binder": "B1", "pseudovirus neutralization IC50": 1.11}, {"binder": "B2", "pseudovirus neutralization IC50": 0.535}, {"binder": "B3", "pseudovirus neutralization IC50": 0.006}, {"binder": "B4", "pseudovirus neutralization IC50": 0.476}, {"binder": "B5", "pseudovirus neutralization IC50": 0.468}, {"binder": "B6", "pseudovirus neutralization IC50": "> 10"}, {"binder": "B7", "pseudovirus neutralization IC50": "> 10"}, {"binder": "B8", "pseudovirus neutralization IC50": 0.006}, {"binder": "B9", "pseudovirus neutralization IC50": "> 10"}, {"binder": "B10", "pseudovirus neutralization IC50": "> 10"}, {"binder": "B11", "pseudovirus neutralization IC50": "> 10"}, {"binder": "B12", "pseudovirus neutralization IC50": "> 10"}]}]}
